Patent US7998474B2, “Methods for treating an inflammatory disease of the bowel” (Rowett Research Institute, priority 2001, dated 2011)

Test system: Caco-2 cells
Assay: Inflammatory cytokine gene expression in Caco-2 cells exposed to S. enteritidis (macroarray, Northern, real-time PCR)
Format: cell-based

Bacteroides thetaiotaomicron [BT]
Inhibitory effect on IL-8 expression over time (10^8 S. enteritidis and 10^9 B. thetaiotaomicron for 2 or 4 hours): sustained for prolonged periods | IL-8 expression induced by other inflammatory mediators (IL-1α, IL1-β, TNF-α, PMA, LPS, E. coli 0157 H7) (10^9 B. thetaiotaomicron): only the PMA, S. enteritidis and E. coli 0157 H7 effects were attenuated
